Test results published in US20130202598.

Experiments:
[1] = tested on: PE-RTA-cleavage site-stalk peptide (P6-P4' NS5A/B site of genotype 1b/1a)
[2] = tested on: PE-RTA-mutated cleavage site-stalk peptide

## recombinant MBP-scNS3 fusion
[1]
  in vitro cleavage by NS3 (immunoblot with anti-PE antibodies): complete cleavage of the chimeric toxin
[2]
  in vitro cleavage by NS3 (immunoblot with anti-PE antibodies): remained indifferent to the presence of the protease
